# RC index of single-base changes in HIV-1 Gag

The measurements come from Al-Mawsawi et al. 2014 (doi:10.1186/s12977-014-0124-6).

Protein: Gag of HIV-1 NL4-3, numbered from its first residue. Gag is numbered as the whole polyprotein.
"Other frame" gives the effect on an overlapping gene as the source lists it; other overlaps (genes, RNA elements) are not shown.

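Random point mutant libraries of HIV-1 NL4-3, one for each of seven fragments, were passaged in CEM T lymphocytes. The RC index is the frequency of a change after passage round 2 divided by its frequency in the plasmid library.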

Values are the RC index; higher means better tolerated. The authors read about 0.1 or less as lethal, 0.1-0.2 as attenuated and 0.2 or more as tolerated.
Each entry names the wild-type residue, its position and the residue put in its place.

For S9R (base C816A, region MA) the result was 0.115.
For D14V (base A830T, region MA) the result was 0.0398.
For W16S (base G836C, region MA) the result was 0.0530.
For L21F (base A852T, region MA) the result was 0.0413.
For W36R (base T895A, region MA) the result was 0.0419.
For F44I (base T919A, region MA) the result was 0.0324.
For A45P (base G922C, region MA) the result was 0.304.
For G56V (base G956T, region MA) the result was 0.146.
For S72A (base T1003G, region MA) the result was 0.157.
For V94E (base T1070A, region MA) the result was 0.0151.
For E106D (base A1107T, region MA) the result was 0.0609.
For N109Y (base A1114T, region MA) the result was 0.0108.
For A119T (base G1144A, region MA) the result was 0.295.
For N125I (base A1163T, region MA) the result was 0.0552.
For V128D (base T1172A, region MA) the result was 0.0189.
For V135L (base G1192T, region CA) the result was 0.0181.
For Q141K (base C1210A, region CA) the result was 0.132.
For M142T (base T1214C, region CA) the result was 0.0176.
For I147T (base T1229C, region CA) the result was 0.129.
For L152F (base A1245T, region CA) the result was 0.0761.
For F172L (base T1303C, region CA) the result was 0.0426.
For A196T (base G1375A, region CA) the result was 0.127.
For L215M (base T1432A, region CA) the result was 0.0590.
For L215F (base G1434C, region CA) the result was 0.0672.
For A224E (base C1460A, region CA) the result was 0.0821.
For M228V (base A1471G, region CA) the result was 0.0309.
For I236T (base T1496C, region CA) the result was 0.0993.
For A237T (base G1498A, region CA) the result was 0.143.
For Q246H (base A1527C, region CA) the result was 0.0324.
For I247L (base A1528T, region CA) the result was 0.0389.
For V258L (base G1561C, region CA) the result was 0.0813.
For I261V (base A1570G, region CA) the result was 0.0508.
For L270F (base A1599T, region CA) the result was 0.0718.
For K272E (base A1603G, region CA) the result was 0.0584.
For C350Y (base G1838A, region CA) the result was 0.0561.
For M367I (base G1890T, region p2) the result was 0.263.
For K388T (base A1952C, region NC p7) the result was 0.110.
For C395G (base T1972G, region NC p7) the result was 0.0761.
For H441L (base A2111T, region p1 / p6*, other frame p6* silent) the result was 0.0512.
For G446E (base G2126A, region p1 / p6*, other frame p6* silent) the result was 0.353.

Excerpt, the final 4 entries:

substitution	base	region	other frame	RC
K388T	A1952C	NC p7	none	0.110
C395G	T1972G	NC p7	none	0.0761
H441L	A2111T	p1 / p6*	p6* silent	0.0512
G446E	G2126A	p1 / p6*	p6* silent	0.353

The authors read an index above 1 as above wild type (1.9% of all changes in the genome).
Since each clone held several changes (about five per kb), neutral changes can read low.
Nucleotide positions follow pNL4-3.